Results of unrelated studies side by side (data: NIAID ChemDB).

Shared fields: whole-cell or culture tests; organism: Hepatitis B virus; measure: EC50

Conditions beyond the fields shown may differ between rows. ECn: concentration that inhibits the pathogen or its effect by n%. a–b is a range or a potency band.

{"SMILES": "C[C@@H](Oc1ccc([C@@H](C)NC(=O)c2c3n(c(=O)n2-c2ccc(OC4CC4)cc2)CCN(C(=O)c2ccc(Br)c(Cl)c2)C3)c(F)c1)C(N)=O", "cell line": "HepG2.117", "method": "PCR", "result": "0.5–5 µM"}
{"SMILES": "Cc1c(C(=O)C(=O)NC2(c3cn[nH]n3)CC(F)(F)C2)c(C)n(C)c1C(=O)Nc1ccc(F)c(C#N)c1", "cell line": "HepG2.2.15", "method": "PCR", "result": "<0.001 µM"}
{"SMILES": "Cc1ccc(COC(=O)Nc2ccc3nn(C)c(C(=O)Nc4ccc(F)c(Cl)c4)c3c2)cc1", "cell line": "HepAD38", "method": "PCR", "result": ">1000 µM"}
{"SMILES": "C[C@@H](NC(=O)C(=O)N1C[C@H]2COc3c(c(Cl)n(C)c3C(=O)Nc3ccc(F)c(C(F)F)c3)S(=O)(=O)N[C@H]2C1)C(F)(F)F", "cell line": "HepAD38", "method": "PCR", "result": "<0.5 µM"}
{"SMILES": "COC(=O)C1=C(CN2CC(F)(F)[C@@H]3[C@H]2CON3C[C@H](O)C(C)(C)C(=O)O)NC(c2nccs2)=N[C@H]1c1ccc(F)cc1Cl", "cell line": "HepG2.2.15", "method": "PCR", "result": "0.167 µM"}
{"SMILES": "Cn1cc(CN(C2CC2)S(=O)(=O)CNc2ccc3c(C(=O)Nc4ccc(F)c(Cl)c4)n(C)nc3c2)cn1", "cell line": "HepAD38", "method": "PCR", "result": "100–1000 µM"}
{"SMILES": "Cc1cc(NC(=O)c2c3c(cn2C)S(=O)(=O)N[C@H]2CN(C(=O)C(=O)N[C@H](C)C(F)(F)F)C[C@H]2CO3)ccc1F", "changes": "V124G", "cell line": "HepG2", "method": "PCR", "result": "0.0068 µM"}
{"SMILES": "CNS(=O)(=O)N1CCC[C@@H](NS(=O)(=O)c2cn(C)c(C(=O)Nc3cccc(C(F)(F)F)c3)c2F)C1", "cell line": "HepAD38 cells", "method": "PCR", "result": "<0.1 µM"}
{"SMILES": "CCOC(=O)C1=C(CN2CC(F)(F)[C@@H]3[C@H]2CON3C[C@H](OC)C(C)(C)C(=O)O)NC(c2nccs2)=N[C@H]1c1ccc(F)cc1Cl", "cell line": "HepG2.2.15", "method": "PCR", "result": "0.016 µM"}
{"SMILES": "CCNC(=O)C(=O)N[C@@H]1CCCN(S(=O)(=O)c2cn(C)c(C(=O)Nc3cc(F)c(F)c(F)c3)c2F)C1", "cell line": "HepAD38 cells", "method": "PCR", "result": "<0.1 µM"}
{"SMILES": "CCOC(=O)C1=C(CN2CC(F)(F)[C@@H]3[C@H]2CON3C[C@H](OCC)C(C)(C)C(=O)O)NC(c2nccs2)=N[C@H]1c1cccc(F)c1C", "cell line": "HepG2.2.15", "method": "PCR", "result": "0.012 µM"}
{"SMILES": "COc1ccc(-n2c(-c3nnc(Cc4ccccc4)o3)c3n(c2=O)CCN(C(=O)c2ccc(Cl)c(Cl)c2)C3)cc1", "cell line": "HepG2.117", "method": "PCR", "result": ">5 µM"}
{"SMILES": "Cn1nc2cc(NS(=O)(=O)C3CC(OCc4ccccc4)C3)ccc2c1C(=O)Nc1ccc(F)c(Cl)c1", "cell line": "HepAD38", "method": "PCR", "result": "100–1000 µM"}
{"SMILES": "Cc1cc(NC(=O)c2c3c(cn2C)S(=O)(=O)NC2CN(C(=O)C(=O)NC4(C)COC4)CC2CO3)ccc1F", "cell line": "HepAD38", "method": "PCR", "result": "<0.5 µM"}
{"SMILES": "Cn1cc(S(=O)(=O)Nc2ccc3c(C(=O)Nc4ccc(F)c(Cl)c4)n(CC4CC4)nc3c2)cn1", "cell line": "HepAD38", "method": "PCR", "result": "100–1000 µM"}
{"SMILES": "CCOC(=O)C1=C(CN2CC(F)(F)[C@@H]3[C@H]2CON3[C@H](C)[C@H](O)C(C)(C)C(=O)O)NC(c2nccs2)=N[C@H]1c1cccc(F)c1C", "cell line": "HepG2.2.15", "method": "PCR", "result": "0.011 µM"}
{"SMILES": "C=C1[C@H](CO)[C@@H](O)C[C@@H]1n1cnc2c(=O)[nH]c(N)nc21", "strain or isolate": "Genotype D", "cell line": "HepG2-NTCP", "method": "ELISA / antigen", "result": ">0.1 µM"}
{"SMILES": "Cn1nc2cc(NS(=O)(=O)NCc3cccc(N)n3)ccc2c1C(=O)Nc1ccc(F)c(Cl)c1", "cell line": "HepAD38", "method": "PCR", "result": "100–1000 µM"}
{"SMILES": "COc1ccc(-n2c(C(=O)N[C@@H]3CCc4cc(OC)ccc43)c3n(c2=O)CCN(C(=O)c2ccc(Br)c(Cl)c2)C3)cc1", "cell line": "HepG2.117", "method": "PCR", "result": "0.5–5 µM"}
{"SMILES": "Cc1c(C(=O)C(=O)NC(C)(C)c2ccc(F)cn2)c(C)n(C)c1C(=O)Nc1ccc(F)c(C#N)c1", "cell line": "HepG2.2.15", "method": "PCR", "result": "0.001–0.0099 µM"}
{"SMILES": "Cn1nc2cc(NS(=O)(=O)N3C4CCC3CC(O)C4)ccc2c1C(=O)Nc1ccc(F)c(Cl)c1", "cell line": "HepAD38", "method": "PCR", "result": "100–1000 µM"}
{"SMILES": "COc1ccc(-n2c(C(=O)NCc3ccc(OCC(N)=O)cc3)c3n(c2=O)CCN(C(=O)c2ccc(Br)c(Cl)c2)C3)cc1", "cell line": "HepG2.117", "method": "PCR", "result": "0.5–5 µM"}
{"SMILES": "Cc1c(C(=O)C(=O)NC2(c3cnn(C4CC4)n3)CC(F)(F)C2)c(C)n(C)c1C(=O)Nc1ccc(F)c(C(F)(F)F)c1", "cell line": "HepG2.2.15", "method": "PCR", "result": "0.001–0.0099 µM"}
{"SMILES": "COC(=O)C1=C(CN2CC(F)(F)[C@@H]3[C@H]2CON3C[C@@H](F)C(C)(C)C(=O)O)NC(c2nccs2)=N[C@H]1c1cccc(F)c1C", "cell line": "HepG2.2.15", "method": "PCR", "result": "0.024 µM"}
{"SMILES": "C#CCNC(=O)C(=O)c1c(C)c(C(=O)Nc2ccc(F)c(C#N)c2)n(C)c1Cl", "cell line": "HepG2.2.15", "method": "PCR", "result": "0.001–0.0099 µM"}
{"SMILES": "CCOC(=O)C1=C(CN2CC(F)(F)[C@H]3[C@@H]2CCN3C[C@H](F)C(C)(C)C(=O)O)NC(c2nc(C)cs2)=N[C@H]1c1cccc(F)c1C", "cell line": "HepG2.2.15", "method": "PCR", "result": "0.0045 µM"}
{"SMILES": "CCNC(=O)C(=O)N[C@@H]1CCN(S(=O)(=O)c2cn(C)c(C(=O)Nc3cc(F)c(F)c(F)c3)c2F)C1", "cell line": "HepAD38 cells", "method": "PCR", "result": "0.3–1 µM"}
{"SMILES": "CCC(O)CNS(=O)(=O)CNc1ccc2c(C(=O)Nc3ccc(F)c(Cl)c3)n(C)nc2c1", "cell line": "HepAD38", "method": "PCR", "result": "100–1000 µM"}
{"SMILES": "CS(=O)(=O)c1ccc(-n2c(C(=O)NCc3ccccc3)c3n(c2=O)CCN(C(=O)c2ccc(Br)c(Cl)c2)C3)cc1", "cell line": "HepG2.117", "method": "PCR", "result": "0.5–5 µM"}
{"SMILES": "Cc1cc(NC(=O)c2c3c(cn2C)S(=O)(=O)NC2CN(C(=O)C(N)=O)CC2CO3)ccc1F", "cell line": "HepAD38", "method": "PCR", "result": "<0.5 µM"}
{"SMILES": "CC(=O)OCCNC(=O)C(=O)N1CC[C@@H](NS(=O)(=O)c2cn(C)c(C(=O)Nc3cc(F)c(F)c(F)c3)c2F)C1", "cell line": "HepAD38 cells", "method": "PCR", "result": "<0.1 µM"}
{"SMILES": "O=C(NCc1ccccc1)c1c2n(c(=O)n1-c1ccc(-n3ccnc3)cc1)CCN(C(=O)c1ccc(Br)c(Cl)c1)C2", "cell line": "HepG2.117", "method": "PCR", "result": "0.5–5 µM"}
{"SMILES": "Cn1ncc(NS(=O)(=O)c2ccc3c(C(=O)Nc4ccc(F)c(Cl)c4)n(C)nc3c2)c1F", "cell line": "HepAD38", "method": "PCR", "result": "100–1000 µM"}